Laboratory results reported in doi:10.1101/2021.09.13.460081.

Target: Human parainfluenza virus type 3 large protein (L) (human parainfluenza virus type 3 (hPIV3))
Assay: cryo-EM structure

Human parainfluenza virus type 3 large protein (L) (a stretch of the chain, no sequence given) (enzyme)
stoichiometry N: 2
